Pooled drug test results. Numbers come from NIAID ChemDB, via PubChem.

Common to all: tests in culture; organism: HIV-1; read by: p24; read-out: EC50

Rows are shuffled and stem from different studies.

structure,conditions,cells,strain or isolate,changes,result
Cc1cc(C)c(-n2nnnc2SCC(=O)Nc2ccccc2I)c(C)c1,50% human serum,MT-4,-,-,<1.25 µM
O=c1[nH]cnc2c1ncn2[C@H]1CC[C@@H](CO)O1,-,PBMC,8564 CLADE D CLADE D,-,1.13 µM
Cc1cn([C@H]2C[C@H](N=[N+]=[N-])[C@@H](CO)O2)c(=O)[nH]c1=O,-,PBMC,IIIB,-,<0.025 µM
Nc1nc(=O)n([C@H]2CO[C@@H](CO)S2)cc1F,-,Jurkat cells,IIIB,-,6 µM
COc1ccc2c(O)c(C(c3cccc(NS(=O)(=O)c4cn(C)cn4)c3)C3CC3)c(=O)oc2c1,-,MT-4,IIIB,-,>>10 µM
CC(C)CN(C[C@@H](O)[C@H](Cc1ccccc1)NC(=O)O[C@H]1CCOC1)S(=O)(=O)c1ccc(N)cc1,-,PBMC,HXB2,PR-L10R M46I L63P V82T I84V,<0.55 µM
Nc1ncnc2c1ncn2CCOCP(=O)(O)O,-,C8166,RF,-,0.9 µM
Cc1ccc(Cl)cc1-n1nnnc1SCC(=O)Nc1ccccc1[N+](=O)[O-],50% human serum,MT-4,-,-,<0.25 µM
COC(=O)[C@H](C)NP(=O)(OC[C@@H]1C=C[C@H](n2cc(C)c(=O)[nH]c2=O)O1)Oc1ccc(Br)cc1,-,PBMC,RTMDR,RT-M41L T215Y,>0.001 µM
CC(C)(C)NC(=O)[C@@H]1C[C@@H]2CCCC[C@@H]2CN1C[C@@H](O)[C@H](Cc1ccccc1)NC(=O)[C@H](CC(N)=O)NC(=O)c1ccc2ccccc2n1,-,PBMC,BR59 (PR L10I K20R M36I/V P63L/S L90M),PR-L10I K20R M36I/V P63L/S L90M,0.005 µM
O=c1oc(C(CC2CC2)CC2CC2)cc(O)c1C(c1cccc(NS(=O)(=O)c2cccc3cccnc23)c1)C1CC1,-,MT-4,IIIB,-,2.3 µM
CC(C)(C)OC(=O)N[C@@H](Cc1ccccc1)[C@H](O)CNC[C@@H](O)[C@H](Cc1ccc(OCC(=O)N2CCOCC2)cc1)NC(=O)OC(C)(C)C,-,MT-2,NL4-3,PR-A71T V82A,0.26 µM
CC(C)Nc1cccnc1N1CCN(C(=O)c2cc3cc(NS(C)(=O)=O)ccc3[nH]2)CC1,-,H9,A1(RT-G190E),RT-G190E,>10 µg/mL
Cc1ccccc1CNC(=O)[C@H]1N(C[C@@H](O)C[C@@H](Cc2ccccc2)C(=O)N[C@H]2c3ccccc3OC[C@H]2O)CSC1(C)C,-,MT-4,-,-,<0.25 µM
Cc1ccnc2c1NC(=O)c1cccnc1N2C1CC1,-,H9,A2(RT-L74V G190E),RT-L74V G190E,>10 µg/mL
Nc1nc(NC2CC2)c2ncn([C@H]3C=C[C@@H](CO)C3)c2n1,-,MT-2,NL4-3 WT,-,0.018 µM
CCC(Cc1ccccc1)c1cc(O)c(C(c2cccc(NS(=O)(=O)c3cn(C)cn3)c2)C2CC2)c(=O)o1,-,MT-4,IIIB,-,1.3 µM
O=C(N[C@H]1c2ccccc2OC[C@H]1O)[C@H](Cc1cccnc1)C[C@H](O)CN1CCN(Cc2ccn(-c3ccc(C(F)(F)F)cc3)c2)C[C@H]1C(=O)NCC(F)(F)F,-,MT-4,K-60C Clinical isolate,PR-L10I M46I I54V Q58E L63P I64V V77I V82F I84V L90M I93L,<0.015 µM
Nc1ccn([C@H]2CC[C@@H](CO)O2)c(=O)n1,-,MT-4,HXB2D,-,0.45 µM
CCCS(=O)(=O)Nc1cccc(C(c2c(O)cc(C(CC)Cc3ccccc3)oc2=O)C2CC2)c1,-,MT-4,IIIB,-,3.5 µM
CC(=O)N1CCC(C(=O)N(CCCN2CCC(Cc3ccc(C(N)=O)cc3)CC2)c2ccc(C)c(Cl)c2)CC1,-,PBMC,IIIB X4,-,>10 µM
Nc1ccn([C@@H]2CO[C@H](CO)S2)c(=O)n1,-,CEM,IIIB,-,0.4 µM
C/C(=C(/CCOC(=O)C(C)C)SS/C(CCOC(=O)C(C)C)=C(\C)N(C=O)Cc1cnc(C)nc1N)N(C=O)Cc1cnc(C)nc1N,-,MOLT-4/HIV-1(IIIB) + MOLT-4,IIIB,-,>50 µM
Nc1ccn([C@H]2CC[C@@H](CO)O2)c(=O)n1,-,PBMC,Recombinant,RT-Q151M,0.07 µM
Cc1cn([C@H]2C[C@H](N=[N+]=[N-])[C@@H](CO)O2)c(=O)[nH]c1=O,-,-,CC6 Clinical isolates,-,0.03 µM
CCO/N=C(\c1ccc(Br)cc1)C1CCN(C2(C)CCN(C(=O)c3c(C)cc[n+]([O-])c3C)CC2)CC1,-,PBMC,301657 R5 CLADE B,-,0.005 µM
Nc1ccn([C@H]2CC[C@@H](CO)O2)c(=O)n1,-,PBL,LAV,-,0.096 µM
Nc1ccn([C@@H]2CO[C@H](CO)S2)c(=O)n1,-,PBMC,CCR20,-,1.1 µM
Cc1cn([C@H]2C=C[C@@H](CO)O2)c(=O)[nH]c1=O,-,MT-2,-,RT-K103N,0.19 µM
CC(C)OC(=O)OCOP(=O)(CO[C@H](C)Cn1cnc2c(N)ncnc21)OCOC(=O)OC(C)C,-,MT-2,P18 FDDA-resistant RT P119S V179D L214F,RT-P119S V179D L214F,0.007 µM
Cc1cc(C)c(-n2nnnc2SCC(=O)Nc2ccc(S(N)(=O)=O)cc2)c(C)c1,10% FBS,MT-4,-,-,<1.25 µM
CCc1cc(NCc2nc3c(Cl)ccc(Cl)c3o2)c(=O)[nH]c1C,-,MT-4,NL4-3,RT-K101D L100I,>3 µM
O=c1[nH]cnc2c1ncn2[C@H]1CC[C@@H](CO)O1,-,PBMC,Recombinant,RT-V75I F77L Q151M,2 µM
Cc1c(O)cccc1C(=O)N[C@@H](CSc1ccccc1)[C@H](O)CN1C[C@H]2CCCC[C@H]2C[C@H]1C(=O)NC(C)(C)C,-,PBMC,HXB2,PR-M46I I47V I50V,<0.035 µM
O=C(N[C@H]1c2ccccc2OC[C@H]1O)[C@H](Cc1cccnc1)C[C@H](O)CN1CCN(Cc2ccn(-c3cccc(F)c3)c2)C[C@H]1C(=O)NCC(F)(F)F,-,MT-4,NL4-3 WT,-,<0.015 µM
CC(C)CN(C[C@@H](O)[C@H](Cc1ccccc1)NC(=O)O[C@H]1CCOC1)S(=O)(=O)c1ccc(N)cc1,-,MT-4,NL4-3,PR-D30N,<0.02 µM
S=C(NCCc1cccs1)Nc1ccc(Br)cn1,-,MT-2,RT-V106A RT-MDR,-,0.006 µM
Cc1ccccc1-n1ccc(CN2CCN(C[C@@H](O)C[C@@H](Cc3cccnc3)C(=O)N[C@H]3c4ccccc4OC[C@H]3O)[C@H](C(=O)NCC(F)(F)F)C2)c1,-,MT-4,K-60C Clinical isolate,PR-L10I M46I I54V Q58E L63P I64V V77I V82F I84V L90M I93L,<0.125 µM
CC(C)[C@H](NC(=O)N(C)Cc1ccccn1)C(=O)N[C@@H](Cc1ccccc1)[C@H](O)[C@H](O)[C@H](Cc1ccccc1)NC(=O)[C@@H](NC(=O)N(C)Cc1ccccn1)C(C)C,-,MT-2,RF,-,0.04 µM
Cc1ccc(NC(=O)Nc2ccc(-c3ccc(NC(=O)Nc4ccc(-c5ccc(NC(=O)Nc6ccc(-c7ccc(NC(=O)Nc8ccc(C)cc8)cc7S(=O)(=O)O)c(S(=O)(=O)O)c6)cc5S(=O)(=O)O)c(S(=O)(=O)O)c4)cc3S(=O)(=O)O)c(S(=O)(=O)O)c2)cc1,-,JM,GB8,-,7.8 µM
Cc1cn([C@H]2C[C@H](N=[N+]=[N-])[C@@H](CO)O2)c(=O)[nH]c1=O,-,PBMC,R416-10 Clinical isolate ZDV-resistant,RT-M41L T215Y,0.3 µM
O=C(N[C@H]1c2ccccc2OC[C@H]1O)[C@H](Cc1cccnc1)C[C@H](O)CN1CCN(Cc2ccn(-c3ccc(Cl)c(Cl)c3)c2)C[C@H]1C(=O)NCC(F)(F)F,-,MT-4,V-18C Clinical isolate,PR-L10I M36I N37D M46I R57K L63P A71V G73S I84V L90M I93L,<0.015 µM
Cc1cccc(-n2nnnc2SCC(=O)Nc2ccccc2[N+](=O)[O-])c1C,10% FBS,MT-4,-,-,<0.063 µM
O=c1[nH]cnc2c1ncn2[C@H]1CC[C@@H](CO)O1,-,PBMC,ddI-resistant (RT K65R/L74V/M184V),RT-K65R L74V M184V,>10 µM
O=C(CSc1nnnn1-c1cc(F)ccc1Cl)Nc1ccccc1[N+](=O)[O-],10% FBS,MT-4,-,-,<0.063 µM
Cc1cn([C@H]2C[C@H](N=[N+]=[N-])[C@@H](CO)O2)c(=O)[nH]c1=O,-,PBL,CLADE D,-,0.015 µM
O=c1[nH]cnc2c1ncn2[C@H]1CC[C@@H](CO)O1,-,MT-4,HXB2-D184 (RT-M184V),RT-M184V,75 µM
Cc1cc(C)c(-n2nnnc2SCC(=O)Nc2ccc([N+](=O)[O-])cc2Cl)c(C)c1,50% human serum,MT-4,-,-,<1.25 µM
CCc1cc(NCc2nc3c(Cl)ccc(Cl)c3o2)c(=O)[nH]c1C,-,PBMC,Clinical isolate (RT K103R D67N K70R K219Q),RT-D67N K70R K103R K219Q,<0.4 µM
CN[C@@H]1[C@H](O[C@@H]2OC[C@@H](O)[C@H](O)[C@H]2O)[C@@H](O)[C@H](O[C@H]2c3cc(C)c(C(=O)N[C@H](C)C(=O)O)c(O)c3-c3c(cc4c(c3O)C(=O)c3cc(OC)cc(O)c3C4=O)[C@@H]2O)O[C@@H]1C,-,PBMC,ID12 R5 CLADE E,-,3.4 µg/mL
Cc1cn([C@H]2C[C@H](N=[N+]=[N-])[C@@H](CO)O2)c(=O)[nH]c1=O,-,PBMC,R112789,-,0.2 µM

A second listing of 5 rows from above:

{"structure": "Nc1ccn([C@@H]2CO[C@H](CO)S2)c(=O)n1", "cells": "PBMC", "strain or isolate": "CCR20", "result": "1.1 µM"}
{"structure": "O=c1[nH]cnc2c1ncn2[C@H]1CC[C@@H](CO)O1", "cells": "MT-4", "strain or isolate": "HXB2-D184 (RT-M184V)", "changes": "RT-M184V", "result": "75 µM"}
{"structure": "O=c1[nH]cnc2c1ncn2[C@H]1CC[C@@H](CO)O1", "cells": "PBMC", "strain or isolate": "Recombinant", "changes": "RT-V75I F77L Q151M", "result": "2 µM"}
{"structure": "CCCS(=O)(=O)Nc1cccc(C(c2c(O)cc(C(CC)Cc3ccccc3)oc2=O)C2CC2)c1", "cells": "MT-4", "strain or isolate": "IIIB", "result": "3.5 µM"}
{"structure": "Cc1cc(C)c(-n2nnnc2SCC(=O)Nc2ccccc2I)c(C)c1", "conditions": "50% human serum", "cells": "MT-4", "result": "<1.25 µM"}

ECn is the concentration giving n% inhibition of infection, replication or growth. An empty or dashed field is not shown.